This is an account of results in patent US7473790B2 (Pfizer Inc., priority 2003, dated 2009).

Protein sequences, listed by entry. Tags and fused reporters are not part of them. Residues count along the entry.
UniProt P26663, 2420-3010 limits assumed: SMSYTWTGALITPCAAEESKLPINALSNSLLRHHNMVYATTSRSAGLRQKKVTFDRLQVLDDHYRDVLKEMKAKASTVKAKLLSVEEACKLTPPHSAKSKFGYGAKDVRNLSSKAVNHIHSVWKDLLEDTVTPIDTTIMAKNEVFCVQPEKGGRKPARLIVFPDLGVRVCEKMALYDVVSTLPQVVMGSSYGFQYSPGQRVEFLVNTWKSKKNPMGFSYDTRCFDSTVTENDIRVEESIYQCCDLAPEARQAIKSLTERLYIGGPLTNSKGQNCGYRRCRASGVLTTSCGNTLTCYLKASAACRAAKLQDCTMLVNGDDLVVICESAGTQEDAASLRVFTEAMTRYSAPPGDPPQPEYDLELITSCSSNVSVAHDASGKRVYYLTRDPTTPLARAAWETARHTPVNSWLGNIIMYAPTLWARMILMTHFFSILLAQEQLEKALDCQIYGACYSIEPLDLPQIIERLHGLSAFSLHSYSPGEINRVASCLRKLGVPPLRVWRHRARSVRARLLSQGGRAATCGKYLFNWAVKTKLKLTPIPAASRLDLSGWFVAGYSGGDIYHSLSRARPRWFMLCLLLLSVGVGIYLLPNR

In this test the target is HCV polymerase (Hepatitis C virus genotype 1b, UniProt P26663). In words: HCV polymerase primer/template-directed transcription assay (32P-GTP incorporation, filter binding). It counts as biochemical. Conditions: recombinant HCV polymerase; 30 minutes at 30° C.; concentration giving 50% inhibition of polymerase-directed transcription. The method, then: The compounds described herein were tested for activity with HCV polymerase. Recombinant HCV polymerase was tested for its ability to perform primer/template-directed transcription in assays that contained 30 mM tris-HCl pH 7.2, 10 mM MgCl2, 20 mM NaCl, 1 mM Dithiothreitol (DTT), 0.05% Tween-20, 1% glycerol, 5 pmoles biotin-dG12 (primer), 0.5 pmoles poly(rC)300 (template), 1 μM GTP, 0.1-0.3 uCi α-^32P-GTP, and 2.5 pmoles (0.15 μg) HCV polymerase protein in a final volume of 75 μL. Reactions were initiated by addition of enzyme and incubated 30 minutes at 30° C. Reactions were stopped by addition of 33 mM EDTA, and polynucleotide products were collected by filtration through Diethylaminoethyl (DE) Filtermat papers (Wallac). Unincorporated triphosphate was removed by washing the filters with 5% dibasic sodium phosphate. The filters were counted in a Packard Tri-Lux Microbeta scintillation counter (Packard Bioscience, Meriden, Conn.). Compounds to be tested were added at various concentrations, e.g., 1 μm to 50 μm, from stocks in 10% DMSO-water (final DMSO is 1% in reaction).
IC50 values were estimated from the primary cpm data (collected in triplicate) using the formula: cpm (I)=cpm(no inhibitor)(1−([I]/([I]+IC50))). An IC50 value represents the concentration (in μM) of a compound that provides 50% inhibition of polymerase-directed transcription in the above assay. A percent inhibition value is expressed for a compound where it was impractical to calculate an IC50 value with available data. If the IC50 estimated by the above equation was less than 200 nM, it was recalculated using the following equation, which takes into account the enzyme concentration (30 nM) in the assay: cpm(I)=cpm(no inhibitor)(1−((((I+IC50+30e−9)−sqrt(((I+IC50+30e−9)^2)−4×30e−9×I)))/((2)(30e−9))). Curve fitting was performed using the program KaleidaGraph (Synergy Software, Reading, Pa.).
What is called IC50 is the concentration at which inhibition is half-maximal. In the case of `O=C1CC(=O)OC(CCc2ccc3c(c2)CCO3)(C2CCCC2)C1` (centres unmarked), the IC50 came out at 6800 nM.

With `CCc1ccc(OCOCCOC)c(CCC2(C3CCCC3)CC(=O)CC(=O)O2)c1` (centres unmarked), the IC50 was found to be 320 nM.

Take `Cc1cc(C)n2nc(CC3=C(O)CC(CCc4ccc5c(c4)CCO5)(C4CCCC4)OC3=O)nc2n1` (centres unmarked): the IC50 turned out to be 54 nM.

Take `CCc1ccc(OCc2ccccc2)c(CCC2(C3CCCC3)CC(=O)CC(=O)O2)c1` (centres unmarked): the 50% inhibitory concentration (IC50) was 2300 nM.

On to `CCc1cc(CCC2(C3CCCC3)CC(=O)CC(=O)O2)c(F)cc1OCOCCOC` (centres unmarked), for which the IC50 came out at 1300 nM.

In the case of `COc1ccc(CCC2(C3CCCC3)CC(O)=C(Oc3ccccc3)C(=O)O2)cc1Cl` (centres unmarked), the half-maximal inhibitory concentration (IC50) amounted to 540 nM.

For `CCc1cc(CCC2(C3CCCC3)CC(=O)CC(=O)O2)c(C)cc1OCOCCOC` (centres unmarked), the IC50 turned out to be 1500 nM.

Turning to `COc1ccc(CCC2(C3CCCC3)CC(O)=C(N(C)c3ccccc3)C(=O)O2)cc1Cl` (centres unmarked), the concentration for half-maximal inhibition (IC50) is 410 nM.
